Measured values taken from paper PMC3444823.

Molecular target: truncated HIV-1 gp120SC (residues 83-492, intact variable loops) (HIV-1 (clade B isolate))
Assay: ELISA

Q: Which EC50 does the source give for “Fc-fusion protein of sCD4 (from UniProt P01730) (Fc fusion)” here?
A: The EC50 was > 100 nM.
